Experimental data taken from patent US6858718B1, “Hydrogen production” (Melis Energy, priority 2001, dated 2005).

B1: C. reinhardtii iron hydrogenase: Fe-hydrogenase HydA from Chlamydomonas reinhardtii, mature polypeptide of 441 amino acids, SEQ. ID. NO. 5 precursor (protein)
chain: AAPAAEAPLSHVQQALAELAKPKDDPTRKHVCVQVAPAVRVAIAETLGLAPGATTPKQLAEGLRRLGFDEVFDTLFGADLTIMEEGSELLHRLTEHLEAHPHSDEPLPMFTSCCPGWIAMLEKSYPDLIPYVSSCKSPQMMLAAMVKSYLAEKKGIAPKDMVMVSIMPCTRKQSEADRDWFCVDADPTLRQLDHVITTVELGNIFKERGINLAELPEGEWDNPMGVGSGAGVLFGTTGGVMEAALRTAYELFTGTPLPRLSLSEVRGMDGIKETNITMVPAPGSKFEELLKHRAAARAEAAAHGTPGPLAWDGGAGFTSEDGRGGITLRVAVANGLGNAKKLITKMQAGEAKYDFVEIMACPAGCVGGGGQPRSTDKAITQKRQAALYNLDEKSTLRRSHENPSIRELYDTYLGEPLGHKAHELLHTHYVAGGVEEKDEKK
B2: S. obliquus iron hydrogenase: monomeric iron hydrogenase (HydA) of 44.5 kDa from Scenedesmus obliquus, SEQ. ID. NO. 4; recombinant form expressed in E. coli (protein, listed as Scenedesmus obliquus)
chain: MPEWQPGGRYAVSVRPPVNRRAVVAAERRRLVVRAAGPTAECDCPPAPAPKAPHWQQTLDELAKPKEQRKVMIAQIAPAVRVAIAETMGLNPGDVTVGQMVTGLRMLGFDYVFDTLFGADLTIMEEGTELLHRLQDHLEQHPNKEEPLPMFTSCCPGWVAMVEKSNPELIPYLSSCKSPQMMLGAVIKNYFAAEAGAKPEDICNVSVMPCVRKQGEADREWFNTTGAGGANVDHVMTTAELGKIFVERGIKLNDLQETPFDNPVGEGSGGVLFGTTGGVMEAALRTVYEVVTQKPLDRIVFEDVRGLEGIKESTLHLTPGPTSPFKAFAGADGTGITLNIAVANGLGNAKKLIKQLAAGESKYDFIEVMACPGGCIGGGGQPRSADKQILQKRQAAMYDLDERAVIRRSHENPLIGALYEKFLGEPNGHKAHELLHTHYVAGGVPDEK

Legend:
[1] = tested on: iron hydrogenase from C. reinhardtii; experiment: Biochemical data of purified iron hydrogenase, hydrogen evolution assay with reduced methyl viologen; parameters: species or system Chlamydomonas reinhardtii; conditions: purified enzyme
Method: Hydrogenase activity of C. reinhardtii was determined in vitro with reduced methyl viologen using a gas chromatograph (Hewlett Packard 5890 Å Series II, column: molecular Sieve 5 Å, Mesh 60/80). The assay, containing in a final volume of 2 mL Pipes pH 6.8 (20 mM), Na2S2O4 (20 mM), MV (5 mM), was incubated anaerobically at 25° C. for 20 min. One unit is defined as he amount of hydrogenase evolving 1 μmol H2 per minute.
Cells from a 40-L culture of C. reinhardtii were harvested by ultra filtration through an Amicon Ultrafiltration System DC 10 LA, with a hollow-fiber filter. The pellet was resuspended in 200 mL TAP medium. After anaerobic adaptation by flushing the solution with argon for 1 h in the dark, all steps were performed under strictly anaerobic conditions. The isolated Fe-hyrogenase was chemically cleaved by cyanogen brormide (CNBr). […]
To verify that the hydA ORF encodes the Fe-hydrogenase of C. reinhardtii, the enzyme was purified according to Happe and Naber (Eur. J. Biochem. 214,475-481 (1993)). […] After proteolytic digestion with cyanogen bromide, four bands of 4, 8, 9 and 11 kDa were detected after SDSIPAGE separation (data not shown). […] The heterologous expressed protein was detected using antibodies raised against the Fe-hydrogenase. […] (ibid) who also detected no H2-production of the recombinant expressed Fe-hydrogenase from Desulfovibrio vulgaris in E. coli cells. […]

[2] = tested on: iron hydrogenase from S. obliquus; experiment: as above; parameters: species or system Scenedesmus obliquus; conditions: purified enzyme
Method: The in vitro hydrogenase activity was measured by using a Hewlett Packard (HP 5890, Series II) gas chromatograph, equipped with a thermal conductivity detector and a molecular sieve column. Methyl viologen reduced by sodium dithionite was used as an electron donor. 1 unit is defined as the amount of hydrogenase evolving 1 mmol of molecular hydrogen (H2) per minute at 25° C.
40-liter cultures of Scenedesmus obliquus were grown heterotrophically. After centrifugation (10 min, 5000×g) the pellet we re-suspended in 200 ml TAP medium. The cells were anaerobically adapted by flushing the solution with argon for 1 hour in the dark. All further purification steps were performed in an anaerobic chamber (Coylab, Ann Arbor, Mich., USA). The cells were disrupted in a 50 mM Tris/HCl, buffer pH 8.0, 10 mM sodium dithionite by vortexing 3 min with glass beads. The further purification steps were made as described hereinbelow for the isolation of the Fe-hydrogenase of Chlamydomonas reinhardti. Automated Edman degradation of the N-terminal site of the protein was performed with an Applied Biosystem model 477A sequencer with online analysator model 120 A.
The N-terminal sequence of HydA was determined by Edman degradation.

| Molecule | Temperature optimum [1] | pH optimum [1] | Temperature optimum [2] | pH optimum [2] |
| --- | --- | --- | --- | --- |
| B1 | 60 °C | 6.9 |  |  |
| B2 |  |  | 60 °C | 7.3 |
